Pooled drug test results. Numbers come from NIAID ChemDB, via PubChem.

Common to all: enzyme or target tests; organism: HIV-1; target: Reverse transcriptase; measure: fold resistance

Rows are shuffled and stem from different studies. Blank or dashed fields: not listed here. Fold resistance: result on the changed form divided by that on wild type.

smiles,method,strain or isolate,mutations,result
CCc1cc(CCc2nc3c(Cl)ccc(Cl)c3o2)c(=O)[nH]c1C,nucleotide incorporation,-,RT-K103N,18
Nc1ncnc2c1ncn2[C@@H]1O[C@H](COP(=O)(O)OP(=O)(O)OP(=O)(O)O)C[C@@H]1F,nucleotide incorporation / radiometric,-,RT-K65R,11.15
CC(C)=CCOc1cc(NC(=S)c2ccoc2C)ccc1Cl,-,-,RT-E138K,0.66
CCc1c([Se]c2ccccc2)n(COCc2ccccc2)c(=O)[nH]c1=O,RT activity,-,RT-L100I,1
Nc1ccn([C@H]2C[C@H](O)[C@@H](COP(=O)(O)OP(=O)(O)OP(=O)(O)O)O2)c(=O)n1,nucleotide incorporation / radiometric,-,RT-K65R,0.76
Cc1cn([C@H]2C=C[C@@H](COP(=O)(O)OP(=O)(O)OP(=O)(O)O)O2)c(=O)[nH]c1=O,RT activity,-,RT-Y188L,2
Cc1cn([C@@H]2O[C@H](CO[Si](C)(C)C(C)(C)C)C3(OS(=O)(=O)C=C3N)[C@H]2O[Si](C)(C)C(C)(C)C)c(=O)n(C)c1=O,RT activity,IIIB,RT-V106A,>276
O=c1cnc2ccccc2n1CCNC(=S)Nc1ccc(Br)cn1,nucleotide incorporation,-,RT-Y181I,10
Cc1cn([C@H]2CC[C@@H](COP(=O)(O)OP(=O)(O)OP(=O)(O)O)O2)c(=O)[nH]c1=O,nucleotide incorporation / radiometric,-,RT-I132A,0.7
CC(=O)c1ccc(C)cc1NC(C(N)=O)c1c(Cl)cccc1Cl,RT activity,IIIB,RT-P225H,1.9
O=c1c2cccn2c2ccccc2n1CCNC(=S)Nc1ccc(Cl)cn1,nucleotide incorporation,-,RT-K103N,33
CCc1c(Sc2ccccc2)n(COCc2ccccc2)c(=O)[nH]c1=O,RT activity,-,RT-T181C,96
Cc1occc1C(=S)Nc1ccc(Cl)c(/C=N/OC(C)(C)C)c1,-,-,RT-K103N,>18.18
O=c1c2cccn2ccn1CCNC(=S)Nc1ccc(Br)cn1,nucleotide incorporation,-,RT-V106A,5.28
CCc1cc(CCc2nc3ccccc3o2)c(=O)[nH]c1C,nucleotide incorporation,-,RT-K103N,59
Nc1ncnc2c1ncn2[C@H]1CC[C@@H](COP(=O)(O)OP(=O)(O)OP(=O)(O)O)O1,nucleotide incorporation / radiometric,-,RT-T215Y,2.74
C/C=C/CSc1cc(NC(=S)c2ccsc2C)ccc1Cl,-,-,RT-L74V,1.04
O=C1c2ccncc2C(=O)N1CCNC(=S)Nc1ccc(Br)cn1,nucleotide incorporation,-,RT-Y188L,14.3
Nc1ccn([C@@H]2CS[C@H](COP(=O)(O)OP(=O)(O)OP(=O)(O)O)O2)c(=O)n1,nucleotide incorporation / radiometric,-,RT-M184V,71.54
CCc1c(Sc2ccccn2)n(COCc2ccccc2)c(=O)[nH]c1=O,RT activity,-,RT-T181C,53
Cc1cc(S(N)(=O)=O)ccc1NC(=O)COc1ccc(Cl)cc1C(=O)c1cc(Cl)cc(C#N)c1,fluorescence,-,RT-V106I,1.5
COc1ccc(/C=C/NC(=O)Nc2ccc(Cl)cn2)cc1OC,nucleotide incorporation,-,RT-Y188L,2.86
CC(C)=CCN1Cc2cccc3[nH]c(=S)n(c23)C[C@@H]1C,-,-,RT-Q161L,1
Cc1c(Sc2ccccc2)n(COCCO)c(=O)[nH]c1=O,-,-,RT-I135T,4
Cc1ccc2c(c1)n(CCNC(=S)Nc1ccc(Br)cn1)c(=O)c1cccn12,nucleotide incorporation,-,RT-Y181I,35

A second listing of 2 rows from above:

O=c1c2cccn2ccn1CCNC(=S)Nc1ccc(Br)cn1 ; method: nucleotide incorporation ; mutations: RT-V106A ; result: 5.28
Cc1occc1C(=S)Nc1ccc(Cl)c(/C=N/OC(C)(C)C)c1 ; mutations: RT-K103N ; result: >18.18